Source: patent US9598459B2, “Pharmaceutical compositions and methods” (priority 2015, dated 2017)
Values joined by “and” are separate entries in the source; they are usually repeats but may differ in a detail not shown here. Equal entries are not always repeated. Where two headings read alike, the source gives them in different places.

Columns and labels:
[1] = test system: Enterovirus D68 US/KY/14-18953; test: Enterovirus D68 antiviral screen in RD; type: cell-based; parameters: SI50: unit not given beside the values
[2] = test system: Vaccinia virus Copenhagen; type: cell-based; details: CC50/EC50; Primary HFF-1, CellTiter-Glo
[3] = test system: Norwalk virus (replicon) GT1; test: Norwalk virus replicon (GT1) in HG23, RNA hybridization; type: cell-based, Norwalk virus (human norovirus); parameters: SI90: unit not given beside the values; details: for SI50 (CC50/EC50): Norwalk replicon, HG23, Table 10
MNV MNV-1 = test: Murine norovirus (MNV-1) antiviral screen in RAW267.4; type: cell-based; parameters: SI90: unit not given beside the values
HIV-1 strain LAI = test: HIV-1 replication reverse transcriptase (RT) assay in PBMC; type: cell-based, human immunodeficiency virus type 1; details: for SI50: CC50/EC50; for SI50 (CC50/EC50): HIV-1LAI
Dengue 2 = test: Dengue virus antiviral screen in HUH7; type: cell-based, dengue virus type 2; details: CC50/EC50
Yellow Fever 17D Vaccine = type: cell-based, yellow fever virus; parameters: SI50: unit not given beside the values
Yellow fever virus 17D = type: cell-based; parameters: SI50: unit not given beside the values
Zika virus MR766 = test: Zika virus antiviral screen in HuH-7; type: cell-based; details: for SI90: CC50/EC90; for SI50 (CC50/EC50): Table 10
Tacaribe TRVL11573 = type: cell-based, Tacaribe virus; parameters: unit not given beside the values; details: Vero
Poliovirus type 3 WM-3 = type: cell-based; parameters: SI90: unit not given beside the values; details: for SI50: ratio CC50 / EC50
[4] = test system: Enterovirus 71 Tainan/4643/98; type: cell-based; parameters: SI90: unit not given beside the values; details: for SI50 (CC50/EC50): Table 10
[5] = test system: Venezuelan equine encephalitis TC-83; type: cell-based, Venezuelan equine encephalitis virus; parameters: SI50: unit not given beside the values
[6] = test system: Respiratory syncytial type A A2 (VR-1540); test: Respiratory syncytial virus type A antiviral screen in MA-104; type: cell-based; details: for SI50: CC50/EC50
[7] = test system: swine-origin pandemic influenza A (H1N1) virus; type: cell-based; parameters: unit not given beside the values
[8] = test system: Herpes simplex virus type 1 E-377; test: Herpes simplex virus type 1 antiviral screen in primary HFF-1 (CellTiter-Glo); type: cell-based; details: CC50/EC50
[9] = test system: MERS coronavirus HCoV-EMC/2012; type: cell-based; parameters: unit not given beside the values
HIV-1 LAV = test: Inhibition of inducible HIV-1 LAV replication in OM-10.1 (RT values); type: cell-based, human immunodeficiency virus type 1
Rift Valley fever MP-12 = type: cell-based, Rift Valley fever virus; parameters: SI50: unit not given beside the values
[10] = test system: Japanese encepahalitis virus SA-14; test: Japanese encephalitis virus antiviral screen in Vero 76; type: cell-based; parameters: unit not given beside the values; details: JEV
[11] = test system: West Nile virus Kern 515, WN02; test: West Nile virus antiviral screen in Vero 76; type: cell-based; parameters: unit not given beside the values
[12] = Neutral Red, Zika, Example 9, ratio CC50 / EC50
[13] = Zika MR-766, HUH7, Tables 2-3, ratio CC50 / EC50
[14] = CC50/EC50, Vero 76, Neutral red
[15] = CC50/EC50, Norovirus/1968/US, HG23, Replicon
[16] = NV GT1, Example 10, listed as 16-000162

## CC(C)S(=O)(=O)n1c(N)nc2ccc(/C(=N/O)c3ccccc3)cc21 [Enviroxime]
[1]; CC50/EC50, RD, Neutral red
  SI50: 250
[1]; CC50/EC50, RD, Visual
  SI50: >320

## Nc1ccn(C[C@@H](CO)OCP(=O)(O)O)c(=O)n1 [Cidofovir]
[2]
  SI50: >20

## C[C@@]1(O)[C@H](O)[C@@H](CO)O[C@H]1n1ccc(N)nc1=O [2′-C-methylcytidine (RS-446), 2′-C-methylcytidine, reference compound]
[3]; NV GT1, Example 10
  SI50: >47
  SI90: >16
[3]
  SI50 (CC50/EC50): >43
MNV MNV-1; Example 11
  SI90: >10
MNV MNV-1; Example 11, ratio CC50 / EC50
  SI50: >30

## CC#C[C@]1(O)CC[C@H]2[C@@H]3CCC4=CC(=O)CCC4=C3[C@@H](c3ccc4c(c3)OCO4)C[C@@]21C [PT150, (11β,17β)-11-(1,3-benzodioxol-5-yl)-17-hydroxy-17-(1-propynyl)-estra-4,9-dien-3-one]
HIV-1 strain LAI
  SI50: 2.3
  SI50 (CC50/EC50): 2.3
Dengue 2; HuH-7, Neutral red
  SI50: 0
Dengue 2; HuH-7, Visual
  SI50: 1
Dengue 2; Dengue 2, HUH7
  SI50: 1
Yellow Fever 17D Vaccine
  SI50: 1.3
Yellow fever virus 17D
  SI50: 1
Zika virus MR766; CC50/EC50, HuH-7, Neutral red
  SI50: 1.1
Zika virus MR766; CC50/EC50, HuH-7, Visual
  SI50: 1
Zika virus MR766; Zika, Example 9
  SI90: 3.4
Zika virus MR766; [12]
  SI50: 2.7
Zika virus MR766; [13]
  SI50: 1
Zika virus MR766; Zika, HuH-7
  SI50 (CC50/EC50): 1.0
Tacaribe TRVL11573; CC50/EC50, Neutral red
  SI50: 1.1
Tacaribe TRVL11573; CC50/EC50, Visual
  SI50: 1.3
Tacaribe TRVL11573; Tacaribe, Table 4
  SI50: 1.1
Poliovirus type 3 WM-3
  SI50 (CC50/EC50): 1.3
  SI50: 1.5 and 1.3
[1]; CC50/EC50, RD, Neutral red
  SI50: 0
[1]; CC50/EC50, RD, Visual
  SI50: 1
[1]; Enterovirus 68, RD, Table 4
  SI50: 1
[4]; [14]
  SI50: 0
[4]; CC50/EC50, Vero 76, Visual
  SI50: 1
[4]; Enterovirus 71, Vero 76, Table 4, ratio CC50 / EC50
  SI50: 1
[4]; Enterovirus 71, Vero 76
  SI50 (CC50/EC50): 1.0
[5]
  SI50: 1.1 and 1
[6]; MA-104, Neutral red
  SI50: 2.3
[6]; MA-104, Visual
  SI50: 1.8
[3]; [15]
  SI50: 7.9
[3]; NV GT1, Example 10
  SI50: >83
  SI90: >12
[3]; [16]
  SI50: >100
  SI90: >11
[3]
  SI50 (CC50/EC50): 7.9
MNV MNV-1; Example 11
  SI90: 110
MNV MNV-1; Example 11, listed as 16-000162
  SI90: 121
MNV MNV-1; Example 11, listed as 16-000162, ratio CC50 / EC50
  SI50: 384
MNV MNV-1; Example 11, ratio CC50 / EC50
  SI50: 351
[7]
  SI50: 0
[8]
  SI50: 1
[9]
  SI50: 1.3 and 1.1
[2]
  SI50: 1

## O=c1cnn([C@@H]2O[C@H](CO)[C@@H](O)[C@H]2O)c(=O)[nH]1 [6-azauridine, reference compound]
Dengue 2; HuH-7, Neutral red
  SI50: 4.6
Dengue 2; HuH-7, Visual
  SI50: >36
Zika virus MR766; CC50/EC50, HuH-7, Neutral red
  SI50: >9.1
Zika virus MR766; CC50/EC50, HuH-7, Visual
  SI50: >31
Zika virus MR766; Zika, Example 9
  SI90: >112
Zika virus MR766; [12]
  SI50: >24
Zika virus MR766; Zika, HuH-7
  SI50 (CC50/EC50): >31

## Cc1cn([C@H]2C[C@H](N=[N+]=[N-])[C@@H](CO)O2)c(=O)[nH]c1=O [AZT, 3′-azido-3′-deoxythymidine, reference compound]
HIV-1 strain LAI
  SI50: >126582
  SI50 (CC50/EC50): >22,696 and >22.696
HIV-1 strain LAI; listed as zidovudine (AZT)
  SI50 (CC50/EC50): >22,696 (n = 20)

## CC#CC1(O)CCC2C3CCC4=CC(=NNC(N)=S)CCC4=C3C(c3ccc4c(c3)OCO4)CC21C.CC#CC1(O)CCC2C3CCC4=CC(=O)CCC4=C3C(c3ccc4c(c3)OCO4)CC21C.CC(C)=O.CCO.O (stereo not drawn) [PT155, ⅓ (11β,17β)-17-Hydroxy-11-[3,4-(methylenedioxy)phenyl]-17-(1-propyn-1-yl)estra-4,9-dien-3-one (ORG34517)×(2EZ)-2-{(11β,17β)-17-hydroxy-11-[3,4-(methylenedioxy)phenyl]-17-(1-propyn-1-yl)estra-4,9-dien-3-ylidene}hydrazinecarbothioamide [71.8% (E), 28.2% (Z)] hemihydrate×¾% acetone× ⅛ ethanol]
HIV-1 strain LAI
  SI50: 15
  SI50 (CC50/EC50): 15.0
HIV-1 LAV; OM-10.1
  ANTIVIRAL INDEX (AI) 50%: >23.1
  ANTIVIRAL INDEX (AI) 90%: >2.02
  ANTIVIRAL INDEX (AI) 95%: >1.38
HIV-1 LAV; OM-10.1, Table 7
  Selectivity Index (CC50/EC50): >23.1
Dengue 2; HuH-7, Neutral red
  SI50: 0
Dengue 2; HuH-7, Visual
  SI50: 0
Yellow Fever 17D Vaccine
  SI50: >1.8
  Selectivity index 50% SI50: 2.9
Yellow fever virus 17D
  Selectivity index 50% SI50: <1
Zika virus MR766; CC50/EC50, HuH-7, Neutral red
  SI50: 8.6
Zika virus MR766; CC50/EC50, HuH-7, Visual
  SI50: 88
Zika virus MR766; Zika, Example 9
  SI90: >122
Zika virus MR766; [12]
  SI50: >1800
Zika virus MR766; [13]
  SI50: 88.2
Zika virus MR766; Zika, HuH-7
  SI50 (CC50/EC50): 88.2
Zika virus MR766; Zika, HuH-7, Tables 5-6
  Selectivity index 50% SI50: 88.2
Tacaribe TRVL11573; CC50/EC50, Neutral red
  SI50: 0
Tacaribe TRVL11573; CC50/EC50, Visual
  SI50: 0
Rift Valley fever MP-12
  SI50: 2.3 and 3.9
  Selectivity index 50% SI50: 6.6
Poliovirus type 3 WM-3
  SI50 (CC50/EC50): 61.4
  SI90: >10
  Selectivity index 50% SI50: 61.4
  SI50: 55 and 62 and >34
[1]; CC50/EC50, RD, Neutral red
  SI50: 0
[1]; CC50/EC50, RD, Visual
  SI50: 1
[1]; Enterovirus D68, RD, Tables 5-6
  Selectivity index 50% SI50: <1
[4]; [14]
  SI50: 280
[4]; CC50/EC50, Vero 76, Visual
  SI50: 89
[4]; CC50/EC90, Enterovirus 71, Example 7
  SI90: 0
[4]; Enterovirus 71, Vero 76
  SI50 (CC50/EC50): 89.0
[4]; Enterovirus 71, Vero 76, Tables 5-6
  Selectivity index 50% SI50: 89.0
[4]; Neutral Red, Enterovirus 71, Example 7, ratio CC50 / EC50
  SI50: >59
[5]
  SI50: 0
  Selectivity index 50% SI50: <1
[6]; MA-104, Neutral red
  SI50: 1.3
[6]; MA-104, Visual
  SI50: 1.2
[6]; Respiratory syncytial type A, MA-104
  Selectivity index 50% SI50: <1
[3]; [15]
  SI50: 4.3
[3]; NV GT1, Example 10
  SI50: >3
  SI90: >1
[3]; NV GT1, Example 10, listed as 16-000163
  SI50: >2
[3]
  SI50 (CC50/EC50): 4.3
[10]; Neutral Red
  SI50: 2
[10]; Visual
  SI50: 9.2
[11]; Neutral Red
  SI50: 0
[11]; Visual
  SI50: 0
MNV MNV-1; Example 11
  SI90: 117
MNV MNV-1; Example 11, listed as 16-000163
  SI90: 131
MNV MNV-1; Example 11, listed as 16-000163, ratio CC50 / EC50
  SI50: 427
MNV MNV-1; Example 11, ratio CC50 / EC50
  SI50: 391
[7]
  SI50: >2.8 and >3.1
[8]
  SI50: <4
[9]
  SI50: 0
[2]
  SI50: 1
